# Laboratory results from PMC8341399, “A STING-based fluorescent polarization assay for monitoring activities of cyclic dinucleotide metabolizing enzymes” (RSC Chemical Biology, 2020).
# Assays:
# [1] = test system: poxin; test: Poxin cGAMP hydrolysis tracking, HPLC analysis; assay type: biochemical, Orthopoxvirus; settings: poxin 5 nM, 50 μM cGAMP
# [2] = test system: poxin; test: Poxin cGAMP hydrolysis tracking, FP assay detection; assay type: biochemical, Orthopoxvirus; settings: poxin 5 nM, 50 μM cGAMP
compound,measurement,setting,value
"Nc1nc2c(ncn2[C@@H]2O[C@@H]3COP(=O)(O)O[C@H]4[C@@H](O)[C@H](n5cnc6c(N)ncnc65)O[C@@H]4COP(=O)(O)O[C@@H]2[C@@H]3O)c(=O)[nH]1 [cGAMP, 2′3-cGAMP]",cGAMP percent cleavage HPLC,[1]; 0 min,0%
same,cGAMP percent cleavage HPLC,[1]; 10 min,32%
same,cGAMP percent cleavage HPLC,[1]; 20 min,59%
same,cGAMP percent cleavage HPLC,[1]; 30 min,71%
same,cGAMP percent cleavage HPLC,[1]; 40 min,83%
same,cGAMP percent cleavage HPLC,[1]; 50 min,92%
same,cGAMP percent cleavage HPLC,[1]; 60 min,97%
same,cGAMP percent cleavage HPLC,[1]; 70 min (product peak assumed 100% cleavage),100%
same,cGAMP percent cleavage FP Assay,[2]; 0 min,0%
same,cGAMP percent cleavage FP Assay,[2]; 10 min,28%
same,cGAMP percent cleavage FP Assay,[2]; 20 min,60%
same,cGAMP percent cleavage FP Assay,[2]; 30 min,78%
same,cGAMP percent cleavage FP Assay,[2]; 40 min,89%
same,cGAMP percent cleavage FP Assay,[2]; 50 min,98%
same,cGAMP percent cleavage FP Assay,[2]; 70 min (assumed 100% cleavage),100%
